Measured values from several laboratories, pooled; numbers as filed in NIAID ChemDB.

Common to all: tests on isolated targets; agent: HIV-1; protein: Protease

Blank or dashed fields: not listed here.

SMILES,strain or isolate,measure,mutations,setting,method,value
O=C1N(Cc2cccc(CO)c2)[C@H](Cc2ccccc2)[C@H](O)[C@@H](O)[C@@H](Cc2ccccc2)N1Cc1cccc(CO)c1,RF,IC50,-,-,-,0.0079 µM
COC(=O)c1cccc(CN2C(=O)N(Cc3cccc(-c4ccn[nH]4)c3)[C@H](Cc3ccccc3)[C@H](O)[C@@H](O)[C@H]2Cc2ccccc2)c1,RF,Ki,-,-,-,0.00014 µM
CC(C)(C)OC(=O)N1Cc2ccccc2C[C@H]1[C@@H](O)CNC[C@H](O)[C@@H]1Cc2ccccc2CN1C(=O)OC(C)(C)C,-,IC50,-,pH 5.5,HPLC,>10 µM
CC(C)(O)c1cccc(CN2C(=O)N(Cc3cccc(C(C)(C)O)c3)[C@H](Cc3ccccc3)[C@H](O)[C@@H](O)[C@H]2Cc2ccccc2)c1,-,Ki,-,-,fluorescence,0.000067 µM
Cc1cc(SC2=C(O)CC(CCc3ccccc3)(c3ccccc3)OC2=O)c(C(C)(C)C)cc1CO,-,IC50,-,pH 6.2,-,0.001 µM
CC(C)(C)OC(=O)N[C@@H](Cc1ccccc1)[C@H](O)CNC[C@@H](O)[C@H](Cc1ccccc1)NC(=O)C(C)(O)C(C)(C)C,-,IC50,-,-,substrate cleavage,0.05 µM
CC(C)(C)OC(=O)N[C@@H](Cc1ccccc1)[C@H](O)CNC[C@@H](O)[C@H](Cc1ccccc1)NC(=O)[C@@H](NC(=O)OCCOCc1ccccc1)C(C)(C)C,-,IC50,-,pH 5.5,HPLC,<10 µM
O=S1(=O)N(Cc2ccc(CO)cc2)[C@H](COc2ccccc2)[C@H](O)[C@@H](O)[C@@H](COc2ccccc2)N1Cc1ccc(CO)cc1,-,Ki,PR-I84V,-,-,0.046 µM
CCN(Cc1cccc(S(=O)(=O)[O-])c1)c1ccc(C(=C2C=CC(=[N+](CC)Cc3cccc(S(=O)(=O)O)c3)C=C2)c2ccccc2S(=O)(=O)O)cc1,-,IC50,-,-,HPLC,31 µM
CC(C)(C)OC(=O)N1CCN(Cc2cn([C@@H](Cc3ccccc3)[C@H](Cc3ccccc3)NC(=O)OC3CCCC3)nn2)CC1,-,IC50,-,-,fluorescence,~5 µM
CNC(=O)[C@@H](NC(=O)[C@H](OCc1ccccc1)[C@H](O)[C@@H](O)[C@@H](OCc1ccccc1)C(=O)N[C@H]1c2ccccc2C[C@H]1O)C(C)C,-,Ki,PR-I84V,-,-,0.00034 µM
O=S(=O)(O)c1cc(O)c2c(O)c(N=Nc3ccccc3)c(S(=O)(=O)O)cc2c1,-,IC50,-,-,HPLC,590 µM
O=C(N[C@@H](Cc1ccccc1)[C@@H](O)CN(Cc1ccc(-c2ccccn2)cc1)NC(=O)[C@@H]1CN(c2ccccc2)C(=O)O1)[C@@H]1CN(c2ccccc2)C(=O)O1,-,Ki,Q7K,-,substrate cleavage / FRET,0.3 µM
Cc1ccc(Cl)cc1N1CCN(Cc2cn([C@@H](Cc3ccccc3)[C@H](Cc3ccccc3)NC(=O)C3CCCC3)nn2)CC1,-,IC50,-,-,fluorescence,>5 µM
CC(C)(C)NC(=O)[C@@H]1C[C@@H]2CCCC[C@@H]2CN1C[C@@H](O)[C@H](Cc1ccccc1)NC(=O)[C@@H](N)C(C)(C)C,-,IC50,-,-,-,0.2 µM
CC(C)(C)NC(=O)N[C@@H](Cc1ccccc1)[C@H](O)CNC[C@@H](O)[C@H](Cc1ccccc1)NC(=O)NC(C)(C)C,-,IC50,-,pH 5.5,HPLC,<10 µM
Cc1ccc(Cl)cc1N1CCN(Cc2cn([C@@H](Cc3ccccc3)[C@H](Cc3ccccc3)NC(=O)NC(C)C)nn2)CC1,-,IC50,-,-,fluorescence,>5 µM
CC(=O)Nc1ccc2cc(S(=O)(=O)O)c(N=Nc3ccc(S(=O)(=O)CCOS(=O)(=O)O)cc3)c(O)c2c1,-,IC50,-,-,HPLC,23 µM
O=C(N[C@H]1c2ccccc2C[C@H]1O)[C@H](OCc1cc(F)cc(F)c1)[C@H](O)[C@@H](O)[C@@H](OCc1cc(F)cc(F)c1)C(=O)N[C@H]1c2ccccc2C[C@H]1O,-,Ki,-,-,-,0.00183 µM
O=C(N[C@@H](Cc1ccccc1)[C@H](Cc1ccccc1)n1cc(CN2CCC3(CC2)C(=O)NCN3c2ccccc2)nn1)OC1CCCC1,-,IC50,-,-,fluorescence,>5 µM
CC(C)(C)OC(=O)N[C@@H](COc1ccccc1)[C@H](O)[C@H](O)[C@H](COc1ccccc1)NC(=O)OC(C)(C)C,-,Ki,-,-,absorbance,0.232 µM
CC(C)(C)NC(=O)[C@H]1N(C(=O)[C@@H](O)[C@H](Cc2ccccc2)NC(=O)[C@H](CC(N)=O)NC(=O)COc2ccccc2-c2ccccc2)CSC1(C)C,-,IC50,-,-,HPLC,0.0028 µM
CC(C)(C)OC(=O)N[C@@H](Cc1ccccc1)[C@H](O)CNC[C@@H](O)[C@H](Cc1ccccc1)NC(=O)[C@H](Cc1ccccc1)NC(=O)OCc1ccccc1,-,IC50,-,pH 5.5,HPLC,<10 µM
Cc1cc(N=Nc2ccc(N=Nc3ccc(S(=O)(=O)O)cc3)cc2)cc(C(=O)O)c1O,-,IC50,-,-,HPLC,25 µM
O=C(N[C@@H](Cc1ccccc1)[C@H](Cc1ccccc1)n1cc(CN2CCN(c3ccc(Cl)c(Cl)c3)CC2)nn1)OC1CCCC1,-,IC50,-,-,fluorescence,<5 µM
CC(C)CN(C[C@@H](O)[C@H](Cc1ccccc1)NC(=O)[C@H](CC(N)=O)NC(=O)c1ccc2ccccc2n1)C(=O)NC(C)(C)C,-,IC50,PR-V82A,-,HPLC,0.0022 µM
CC(C)(C)NC(=O)[C@@H]1CCCN1C(=O)[C@@H](O)[C@H](Cc1ccccc1)NC(=O)[C@H](CC(N)=O)NC(=O)OCc1ccccc1,-,IC50,-,-,HPLC,3 µM
CC(C)[C@@H](NC(=O)OCc1ccccc1)C(=O)N[C@@H](Cc1ccccc1)[C@H](O)CNC[C@@H](O)[C@H](Cc1ccccc1)NC(=O)OC(C)(C)C,-,IC50,-,pH 5.5,HPLC,~10 µM
O=c1c(CO)c/c(=N\Nc2ccc(S(=O)(=O)O)c3ccccc23)c(=O)/c1=N/Nc1ccc(S(=O)(=O)O)c2ccccc12,-,IC50,-,-,HPLC,1.5 µM
O=C1N(Cc2cccc(C(=O)C(F)(F)F)c2)[C@H](Cc2ccccc2)[C@H](O)[C@@H](O)[C@@H](Cc2ccccc2)N1Cc1cccc(C(=O)C(F)(F)F)c1,RF,Ki,-,-,-,0.000037 µM
CC(C)(C)NC(=O)[C@@H]1CCCN1C(=O)C(=O)[C@H](Cc1ccccc1)NC(=O)[C@H](CC(N)=O)NC(=O)c1ccc2ccccc2n1,-,IC50,-,-,HPLC,0.044 µM
CNC(=O)CN1[C@H](COc2ccccc2)[C@H](O)[C@@H](O)[C@@H](COc2ccccc2)N(CC(=O)NC)S1(=O)=O,-,Ki,PR-V82A,-,-,110 µM
CC(C)(C)NC(=O)[C@@H]1CCCN1C(=O)[C@@H](O)[C@H](Cc1ccccc1)NC(=O)[C@H](CC(N)=O)NC(=O)OCc1cccc2ccccc12,-,IC50,-,-,HPLC,0.0035 µM
CCN(CC)c1ccc2cc3ccc(=[N+](CC)CC)cc-3oc2c1,-,IC50,-,-,HPLC,17 µM
CC(C)(C)OC(=O)N[C@@H](COc1ccccc1)C[C@H](O)[C@H](COc1ccccc1)NC(=O)OC(C)(C)C,-,Ki,-,-,absorbance,0.052 µM
O=C(N[C@H]1c2ccccc2C[C@H]1O)[C@H](OCc1ccc(F)c(F)c1)[C@H](O)[C@@H](O)[C@@H](OCc1ccc(F)c(F)c1)C(=O)N[C@H]1c2ccccc2C[C@H]1O,-,Ki,-,-,-,0.00492 µM
CC(C)(C)NC(=O)[C@H]1N(C(=O)[C@@H](O)[C@H](Cc2ccccc2)NC(=O)[C@H](CC(N)=O)NC(=O)COc2cccc(Nc3ccccc3)c2)CSC1(C)C,-,IC50,-,-,HPLC,0.003 µM
CC(C)(C)NC(=O)[C@@H]1CCCN1C(=O)[C@@H](O)[C@H](Cc1ccccc1)NC(=O)[C@H](CC(N)=O)NC(=O)c1ccc2ccccc2n1,-,IC50,-,-,HPLC,0.044 µM
O=C1N(Cc2cccc(CO)c2)[C@H](Cc2ccccc2)[C@H](O)[C@@H](O)[C@@H](Cc2ccccc2)N1Cc1cccc(-c2ccn[nH]2)c1,RF,Ki,-,-,-,0.00016 µM
Nc1c(N=Nc2ccc([N+](=O)[O-])cc2)c(S(=O)(=O)O)cc2cc(S(=O)(=O)O)cc(O)c12,-,IC50,-,-,HPLC,>100 µM
CC(C)(C)NC(=O)[C@@H]1C[C@@H]2CCCC[C@@H]2CN1C[C@@H](O)[C@H](Cc1ccccc1)NC(=O)[C@@H](NC(=O)COc1cccnc1)C(C)(C)S(C)(=O)=O,-,IC50,-,-,-,0.0005 µM
CC(C)C[C@H](NC(=O)[C@H](CO)NC(=O)OC(C)(C)C)C(=O)N[C@@H](CC(N)=O)C(=O)N[C@@H](Cc1ccccc1)B(O)O,-,Ki,-,-,HPLC,>10 µM
C[C@H]1[C@H](C)CC[C@]2(C(=O)O)CC[C@]3(C)C(=CC[C@@H]4[C@@]5(C)CC[C@H](O)C(C)(C)[C@@H]5CC[C@]43C)[C@H]12,-,IC50,-,-,HPLC,8 µM
CC(C)(C)C(=O)c1cccc(CN2C(=O)N(Cc3cccc(C(=O)C(C)(C)C)c3)[C@H](Cc3ccccc3)[C@H](O)[C@@H](O)[C@H]2Cc2ccccc2)c1,RF,Ki,-,-,-,0.0036 µM
O=C1N(Cc2ccc(CO)cc2)[C@H](COc2ccccc2)[C@H](O)[C@@H](O)[C@@H](COc2ccccc2)N1Cc1ccc(CO)cc1,IIIB,Ki,PR-L90M PR-I84V,-,fluorescence,0.0031 µM
CC(=O)C[C@H](NC(C)=O)C(=O)N[C@@H](Cc1ccccc1)[C@H](O)CN1C[C@H]2CCCC[C@H]2C[C@H]1C(=O)NC(C)(C)C,-,IC50,-,-,-,0.08 µM
CCOC(=O)N1CCN(Cc2cn([C@@H](Cc3ccccc3)[C@H](Cc3ccccc3)NC(=O)OC3CCCC3)nn2)CC1,-,IC50,-,-,fluorescence,>5 µM
CC1=NN(c2cc(Cl)c(S(=O)(=O)O)cc2Cl)C(=O)C1N=Nc1ccc(S(=O)(=O)O)cc1,-,IC50,-,-,HPLC,1000 µM
O=C(N[C@@H](Cc1ccccc1)[C@H](Cc1ccccc1)n1cc(CN2CCN(c3ccncc3)CC2)nn1)OC1CCCC1,-,IC50,-,-,fluorescence,>5 µM
O=S1(=O)N(Cc2cccc(I)c2)[C@H](COc2ccccc2)[C@H](O)[C@@H](O)[C@@H](COc2ccccc2)N1Cc1cccc(I)c1,-,Ki,PR-V82A,-,-,3.1 µM
CC(C)(C)NC(=O)N[C@@H](Cc1ccccc1)[C@H](O)CNC[C@@H](O)[C@H](Cc1ccccc1)NC(=O)OC(C)(C)C,-,IC50,-,pH 5.5,HPLC,<10 µM
CCCC(=O)c1cccc(CN2C(=O)N(Cc3cccc(C(=O)CCC)c3)[C@H](Cc3ccccc3)[C@H](O)[C@@H](O)[C@H]2Cc2ccccc2)c1,RF,Ki,-,-,-,0.0014 µM
O=C(N[C@@H](Cc1ccccc1)[C@@H](O)C[C@H](Cc1ccccc1)NC(=O)[C@@H]1CN(c2cccc(C(F)(F)F)c2)C(=O)O1)OCc1cccnc1,-,Ki,-,-,FRET,0.04109 µM
CC(C)C[C@H](NC(=O)[C@@H](N)[C@@H](C)O)C(=O)N[C@@H](CC(N)=O)C(=O)N[C@@H](Cc1ccccc1)B1O[C@H](C2CCCCC2)[C@@H](C2CCCCC2)O1,-,Ki,-,-,HPLC,50 µM
Cc1cccc(C)c1OCC(=O)N[C@@H](Cc1ccccc1)[C@@H](O)C[C@H](Cc1ccccc1)NC(=O)[C@@H]1CN(c2ccccc2)C(=O)O1,-,Ki,Q7K,-,substrate cleavage / FRET,0.00728 µM
O=C1N(Cc2cccc(-c3cnc[nH]3)c2)[C@H](Cc2ccccc2)[C@H](O)[C@@H](O)[C@@H](Cc2ccccc2)N1Cc1cccc(-c2cnc[nH]2)c1,RF,Ki,-,-,fluorescence,0.00019 µM
O=C(Cc1ccc2c(c1)OCO2)N[C@@H](Cc1ccccc1)[C@@H](O)C[C@H](Cc1ccccc1)NC(=O)[C@@H]1CN(c2ccccc2)C(=O)O1,-,Ki,Q7K,-,substrate cleavage / FRET,0.657 µM
CC(C)(C)OC(=O)N[C@@H](Cc1ccccc1)[C@H](O)CNC[C@@H](O)[C@H](Cc1ccc(OCC(=O)N2CCOCC2)cc1)NC(=O)OC(C)(C)C,-,IC50,PR-A71T V82A,-,HPLC,1.14 µM
O=C1N(Cc2cccc(-c3ncn[nH]3)c2)[C@H](Cc2ccccc2)[C@H](O)[C@@H](O)[C@@H](Cc2ccccc2)N1Cc1cccc(-c2ncn[nH]2)c1,RF,Ki,-,-,-,0.000052 µM

4 of the rows above, restated:

SMILES,strain or isolate,measure,mutations,setting,method,value
O=C1N(Cc2cccc(CO)c2)[C@H](Cc2ccccc2)[C@H](O)[C@@H](O)[C@@H](Cc2ccccc2)N1Cc1cccc(CO)c1,RF,IC50,-,-,-,0.0079 µM
CC(C)(C)OC(=O)N1Cc2ccccc2C[C@H]1[C@@H](O)CNC[C@H](O)[C@@H]1Cc2ccccc2CN1C(=O)OC(C)(C)C,-,IC50,-,pH 5.5,HPLC,>10 µM
CC(C)C[C@H](NC(=O)[C@@H](N)[C@@H](C)O)C(=O)N[C@@H](CC(N)=O)C(=O)N[C@@H](Cc1ccccc1)B1O[C@H](C2CCCCC2)[C@@H](C2CCCCC2)O1,-,Ki,-,-,HPLC,50 µM
CC(C)(C)NC(=O)N[C@@H](Cc1ccccc1)[C@H](O)CNC[C@@H](O)[C@H](Cc1ccccc1)NC(=O)OC(C)(C)C,-,IC50,-,pH 5.5,HPLC,<10 µM

Lines come from different laboratories, so protocols vary. ICn: concentration for n% inhibition.